For at least one entry, the source does not settle the construct or the ends of the probe. At least one verdict rests on a figure or table, not on a statement of the authors.
Target: NSP9ΔC (Bombyx mori cypovirus 1 (BmCPV1)) (UniProt O72505)
Test: EMSA
Conditions: SEC: 10 mM HEPES pH 7.5, 100 mM NaCl, recombinant protein, residues 1-286, label: 5' 6-FAM

AGTAAGCTGTTAGCC (double strand) [15 bp dsDNA]
binding result: binds

AGTAAATCCCAGGCGCTCGGGTCGTTAGCC (double strand) [30 bp dsDNA]
binding result (no two-band pattern): binds
